Laboratory results: PubChem BioAssay AID624099 (ICCB-Longwood, 2012)
Purpose: 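Human genes that papillomavirus E2 requires to repress the HPV18 LCR promoter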 (primary screen). Cells: human C33A cervical carcinoma cells (HPV-negative) stably expressing BPV1 E2 and an HPV18 LCR luciferase reporter. Knock-down reagent: siRNA pool against human genes, 40 nM. Timing: 72 h. Measured: 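Per-well luciferase luminescence, z-scored on each plate against the plate mean and SD with control wells left out, then averaged across three replicate plates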. Scale: mean z-score and z-score: higher = stronger reporter signal, weaker E2 silencing. Active means: 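Hit if mean z-score reaches 2 and two or more of three replicate z-scores also reach 2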.
In all, the deposit lists about 21,000 reagents; this is a part drawn at random. Of all reagents, 497 (2.4%) are marked active. 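Higher z means weaker E2 silencing; only reporter increases were scored, and knock-downs that hurt cell survival may mask genuine repressor factors.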

Target gene	PubChem SID	mean z-score	z-score, replicate A	z-score, replicate B	z-score, replicate C	outcome
AVL9 (AVL9 cell migration associated)	SID134326315	-0.25	-0.24	-0.32	-0.19	inactive
KIAA0586	SID134324522	-0.07	-0.04	0.06	-0.24	inactive
TTPAL (alpha tocopherol transfer protein like)	SID134318501	3.02	2.94	2.97	3.14	active
NOX3 (NADPH oxidase 3)	SID134318065	3.84	4.32	3.2	4	active
UTF1 (undifferentiated embryonic cell transcription factor 1)	SID134323331	1.9	1.65	1.42	2.63	inactive
LOC389288 (retired record)	SID134327574	0.67	0.51	0.84	0.66	inactive
LOC401433 (retired record)	SID134327776	1.36	1.5	1.11	1.48	inactive
LOC401433 (retired record)	SID134327914	1.49	1.64	1.4	1.44	inactive
PENK (proenkephalin)	SID134323862	-1.08	-1.33	-1.09	-0.81	inactive
LOC390704 (retired record)	SID134328718	1.91	2.06	1.99	1.7	inactive
IGHV5-78 (immunoglobulin heavy variable 5-78 (pseudogene))	SID134321666	-1.53	-1.58	-1.67	-1.36	inactive
SNRPB2 (small nuclear ribonucleoprotein polypeptide B2)	SID134320883	0	0.24	-0.04	-0.21	inactive
MRPL17 (mitochondrial ribosomal protein L17)	SID134317289	1.16	0.8	1.12	1.56	inactive
CXXC1 (CXXC finger protein 1)	SID134313412	0.88	1.15	0.67	0.84	inactive
F5 (coagulation factor V)	SID134312833	-1.32	-0.97	-1.4	-1.58	inactive
LOC401268 (retired record)	SID134327654	-0.27	-0.03	-0.49	-0.3	inactive
S100A1 (S100 calcium binding protein A1)	SID134316541	1.73	1.7	1.93	1.57	inactive
GCNT1 (glucosaminyl (N-acetyl) transferase 1)	SID134315634	-0.42	-0.38	-0.5	-0.38	inactive
COPG2 (coat protein complex I subunit gamma 2)	SID134323738	-0.25	-0.52	-0.42	0.2	inactive
TSPAN32 (tetraspanin 32)	SID134324995	-0.18	-0.1	-0.4	-0.04	inactive
SULF1 (sulfatase 1)	SID134311933	0.6	0.46	0.64	0.7	inactive
LOC389442 (retired record)	SID134327666	0.56	0.67	0.54	0.49	inactive
LVRN (laeverin)	SID134311305	0.26	0.22	0.31	1.13	inactive
METTL17 (methyltransferase like 17)	SID134317943	0.23	-0.1	0.21	0.57	inactive
CEACAM21 (CEA cell adhesion molecule 21)	SID134319140	0.16	0.25	0.09	0.16	inactive
BCKDHB (branched chain keto acid dehydrogenase E1 subunit beta)	SID134314201	1	1.13	0.95	0.91	inactive
LINC01096 (long independently transcribed non-coding RNA 1096)	SID134327473	0.46	0.38	0.56	0.45	inactive
HTR7 (5-hydroxytryptamine receptor 7)	SID134311083	0.26	0.06	0.28	0.44	inactive
MARCHF11-DT (MARCHF11 divergent transcript)	SID134327501	-1.48	-1.56	-1.76	-1.12	inactive
COX4I1P1 (cytochrome c oxidase subunit 4I1 pseudogene 1)	SID134325265	-1.69	-1.86	-1.39	-1.82	inactive
THBS4 (thrombospondin 4)	SID134321742	0.29	0.01	0.15	0.69	inactive
ACSS2 (acyl-CoA synthetase short chain family member 2)	SID134314966	1.1	1.03	0.98	1.3	inactive
LOC400852 (retired record)	SID134329013	0.01	0.1	-0.12	0.06	inactive
LOC132706 (retired record)	SID134325896	-0.22	-0.13	-0.48	-0.03	inactive
JKAMP (JNK1/MAPK8 associated membrane protein)	SID134320850	-1.08	-0.43	-1.23	-1.57	inactive
FASTK (Fas activated serine/threonine kinase)	SID56479004	-0.55	0.1	-1.05	-0.69	inactive
AP2A2 (adaptor related protein complex 2 subunit alpha 2)	SID134317064	1	1.06	0.8	1.13	inactive
KRTAP17-1 (keratin associated protein 17-1)	SID134317743	-1.2	-1.2	-1.21	-1.18	inactive
NTF3 (neurotrophin 3)	SID134317631	1.01	0.97	1.07	1	inactive
CHRNA4 (cholinergic receptor nicotinic alpha 4 subunit)	SID134311557	-0.36	-0.37	-0.6	-0.11	inactive
IL21R (interleukin 21 receptor)	SID134312905	0.28	0.21	0.22	0.4	inactive
LINC01600 (long independently transcribed non-coding RNA 1600)	SID134320957	0.12	-0.18	0.37	0.17	inactive
OR5B17 (olfactory receptor family 5 subfamily B member 17)	SID134329930	2.21	2.07	2.19	2.38	active
ZNF663P (zinc finger protein 663, pseudogene)	SID134322065	1.26	1.38	1.25	1.14	inactive
ST6GALNAC5 (ST6 N-acetylgalactosaminide alpha-2,6-sialyltransferase 5)	SID134318797	-0.85	-1	-0.58	-0.98	inactive
SLFN5 (schlafen family member 5)	SID134326769	-0.64	-0.46	-0.85	-0.61	inactive
P2RY11 (purinergic receptor P2Y11)	SID134311130	0.59	0.39	0.69	0.69	inactive
POLR2L (RNA polymerase II, I and III subunit L)	SID134317368	-1.17	-1.28	-1.11	-1.1	inactive
PLCXD1	SID134324169	-0.09	0.17	-0.22	-0.22	inactive
PDE5A (phosphodiesterase 5A)	SID134312704	-1.14	-1.04	-1.14	-1.23	inactive
C1orf54 (chromosome 1 open reading frame 54)	SID134318533	0.76	0.84	0.78	0.64	inactive
PLXDC1 (plexin domain containing 1)	SID134319659	-0.64	-0.68	-0.41	-0.82	inactive
APOE (apolipoprotein E)	SID134311805	-2.06	-1.98	-2.15	-2.05	inactive
AQP12B (aquaporin 12B)	SID134325628	-0.77	-1.01	-0.8	-0.5	inactive
ZNF2 (zinc finger protein 2)	SID134318310	0.58	0.51	0.59	0.63	inactive
RGCC (regulator of cell cycle)	SID134321398	-0.21	-0.09	-0.42	-0.11	inactive
SARS1 (seryl-tRNA synthetase 1)	SID134317701	0.6	0.55	0.32	0.95	inactive

A run of entries from the list above:
Target gene	PubChem SID	mean z-score	z-score, replicate A	z-score, replicate B	z-score, replicate C	outcome
TTPAL (alpha tocopherol transfer protein like)	SID134318501	3.02	2.94	2.97	3.14	active
NOX3 (NADPH oxidase 3)	SID134318065	3.84	4.32	3.2	4	active
